A mixed list of measured activities; the numbers were collected in NIAID ChemDB.

Shared fields: whole-cell or culture tests; agent: Mycobacterium tuberculosis

Inhibition is in % at the dose shown (toxicity tests: loss of growth or viability). Blank or dashed fields: not listed here. Two numbers with a dash give a range or band. Conditions beyond the fields shown may differ between rows. ECn is the concentration giving n% inhibition of infection, replication or growth. MIC bound comes from a single tested concentration.

SMILES,strain,read by,mutations,cells,read-out,tested at,result
CO[C@H]1/C=C/O[C@@]2(C)Oc3c(C)c(O)c4c(O)c(c5c(c4c3C2=O)NC2(CCN(CC(C)C)CC2)N=5)=NC(=O)/C(C)=C\C=C\[C@H](C)[C@H](O)[C@@H](C)[C@@H](O)[C@@H](C)[C@H](OC(C)=O)[C@@H]1C,Strain 75,-,-,-,MIC,-,1 µg/mL
C[C@H](O)[C@H]1/C=C/C=C\C(=O)O[C@@H]2C[C@H]3O[C@@H]4[C@@H]5O[C@]5(C)CC[C@]4(COC(=O)[C@H]4O[C@]4(C)[C@@H](O)CO1)[C@]2(C)[C@]31CO1,H37Rv,BACTEC,-,-,inhibition,12.5 µg/mL,3%
CCCCCCCCCCCCNC(=O)c1cccnc1,H37Rv,-,-,-,MIC,-,>100 µg/mL
Cc1ccc(N2C(=O)CSC2=S)cc1F,H37Rv,BACTEC,-,-,MIC bound,-,>12.5 µg/mL
COc1ccc(Nc2cc(Cl)ccc2C(=O)O)cc1,H37Rv,-,-,-,MIC,-,>100 µg/mL
O=c1oc2ccccc2c(=O)n1-c1cccc(F)c1,CNCTC MY331/88,-,-,-,MIC,-,62 µM
NNC(=O)c1ccncc1,89996,-,-,-,MIC,-,≥0.2 µg/mL
Cc1cc(=S)[nH]c2cc(Cl)ccc12,H37Rv,-,-,-,MIC,-,>100 µg/mL
C[C@H]1COc2c(N3CCN(C)CC3)c(F)cc3c(=O)c(C(=O)O)cn1c23,7S,-,-,-,MIC,-,0.5 µg/mL
CO[C@H]1/C=C/O[C@@]2(C)Oc3c(C)c(O)c4c(O)c(c(/C=N/N5CCN(C)CC5)c(O)c4c3C2=O)NC(=O)/C(C)=C\C=C\[C@H](C)[C@H](O)[C@@H](C)[C@@H](O)[C@@H](C)[C@H](OC(C)=O)[C@@H]1C,Clinical isolate 10975,broth dilution,Rifampicin- and isoniazid-resistant,-,MIC,-,>10 µM
Cn1c2ccccc2n2c(=O)c(-c3ccc(O)cc3)nnc12,H37Rv,resazurin,-,-,inhibition,6.25 µg/mL,6%
C1=C(CCNCCNCC23CC4CC(CC(C4)C2)C3)CCCC1,-,-,-,-,MIC,-,25 µM
Cc1ccc(S(=O)(=O)N/N=C2\CC(C)(C)OC2(C)C)cc1,H37Rv,BACTEC,-,-,inhibition,12.5 µg/mL,-2%
C=C(NC(=O)c1csc(-c2nc3c(cc2O)-c2nc(cs2)C(=O)N[C@@H]([C@@H](C)O)C(=O)N/C(=C(\C)OC)c2nc(cs2)C(=O)N[C@@H]2c4nc(cs4)C(=O)N[C@@H](COC(=O)c4c5c6c(cccc6n4O)COC(=O)[C@@H](O[C@H]4C[C@](C)(O)[C@H](N(C)C)[C@H](C)O4)[C@H]2OC5)c2nc-3cs2)n1)C(N)=O,Clinical isolate 10367,broth dilution,-,-,MIC,-,≤2.5 µM
CCN(CC)CCCC(C)Nc1ccnc2c1ccc1cccnc12,H37Rv,-,-,-,MIC,-,25 µg/mL
Cc1ccc(NCCN(C)C)c2c(=O)c3ccc(O)cc3sc12,H37Rv,BACTEC,-,-,MIC,-,12.5 µg/mL
CCCCCCCCCCCNCCNC1CCCC(C)C1C,-,-,-,-,MIC,-,25 µM
CO[C@H]1/C=C/O[C@@]2(C)Oc3c(C)c(O)c4c(O)c(c(/C=N/N5CCN(C)CC5)c(O)c4c3C2=O)NC(=O)/C(C)=C\C=C\[C@H](C)[C@H](O)[C@@H](C)[C@@H](O)[C@@H](C)[C@H](OC(C)=O)[C@@H]1C,TN794,-,-,-,MIC,-,>32 µg/mL
O=C1CC(c2ccccc2)N1c1ccccc1,H37Rv,-,-,-,MIC,-,>100 µg/mL
CC(C)=CC(=O)O[C@H]1[C@@H]2[C@H](C)C(=O)O[C@@H]2C[C@@H](C)[C@@H]2[C@@H](O)CC(=O)[C@]21C,H37Rv,BACTEC,-,-,inhibition,12.8 µg/mL,9%
COc1ccc(-n2c(=O)oc3ccc(C)cc3c2=O)cc1,CNCTC MY331/88,-,-,-,MIC,-,125 µM
CO[C@H]1/C=C/O[C@@]2(C)Oc3c(C)c(O)c4c(O)c(c(/C=N/N5CCN(C)CC5)c(O)c4c3C2=O)NC(=O)/C(C)=C\C=C\[C@H](C)[C@H](O)[C@@H](C)[C@@H](O)[C@@H](C)[C@H](OC(C)=O)[C@@H]1C,38396,-,-,-,MIC,-,<2 µg/mL
O=C1c2cccc(O)c2C(=O)c2c(O)cccc21,H37Rv,-,-,-,MIC,-,>100 µg/mL
O=C1c2cc(Cl)ccc2OC2CCON12,H37Rv,resazurin,-,-,inhibition,6.25 µg/mL,-7%
COc1ccc2c(=O)n(-c3ccc(Cl)cc3)c(=O)oc2c1,CNCTC MY331/88,-,-,-,MIC,-,32 µM
c1ccc(CC2CCN(CCNCC34CC5CC(CC(C5)C3)C4)CC2)cc1,-,-,-,-,MIC,-,9.4 µM
CCCc1cc(=O)[nH]c2c3c(c4c(c12)OC(C)(C)C=C4)O[C@H](C)[C@@H](C)[C@@H]3O,H37Rv,resazurin,-,-,inhibition,6.25 µg/mL,87%
NC[C@H]1O[C@H](O[C@H]2[C@H](O)[C@@H](O[C@H]3O[C@H](CO)[C@@H](O)[C@H](N)[C@H]3O)[C@H](N)C[C@@H]2N)[C@H](O)[C@@H](O)[C@@H]1O,TN3360 (W),-,-,-,MIC,-,>256 µg/mL
COC1=C(OC)C(=O)C(Sc2ccccc2)=C(CO)C1=O,H37Rv,resazurin,-,-,inhibition,6.25 µg/mL,-9%
C=C(NC(=O)c1csc(-c2nc3c(cc2O)-c2nc(cs2)C(=O)N[C@@H]([C@@H](C)O)C(=O)N/C(=C(\C)OC)c2nc(cs2)C(=O)N[C@@H]2c4nc(cs4)C(=O)N[C@@H](COC(=O)c4c5c6c(cccc6n4O)COC(=O)[C@@H](O[C@H]4C[C@]6(C)OCN(C)[C@@H]6[C@H](C)O4)[C@H]2OC5)c2nc-3cs2)n1)C(N)=O,Clinical isolate 565,broth dilution,Multidrug-resistant,-,MIC,-,10–100 µM
O=C(Cc1ccc([N+](=O)[O-])cc1)Nc1ccccc1,H37Rv,-,-,-,MIC,-,>100 µg/mL
Fc1ccc(-c2nc3cc(-c4ccccc4)[nH]n3c2N=Nc2ccccc2)cc1,H37Rv,BACTEC,-,-,MIC bound,-,>12.5 µg/mL
NC(=O)c1cnccn1,Isolate 10274,-,-,-,MIC,-,100 µg/mL
NNC(=O)c1ccncc1,PR118,-,-,-,MIC,-,0.16 µg/mL
CC(=O)Nc1ccccc1C(=O)O,H37Rv,-,-,-,MIC,-,>100 µg/mL
Nc1ccc(C(=O)/C=C/c2ccccc2)cc1,H37Rv,-,-,-,EC50,-,>12.5 µg/mL
COc1ccc(OC)c(CCNCCNCCCCCO)c1,-,-,-,-,MIC,-,12.5 µM
O=C(C[n+]1ccccc1)Nc1ccccc1.[Br-],H37Rv,-,-,-,MIC,-,>100 µg/mL
COc1cc(CNCCNC[C@]2(C)CCC[C@]3(C)c4ccc(C(C)C)cc4CC[C@@H]23)cc(OC)c1OC,-,-,-,-,MIC,-,50 µM
O=C(O)c1cc(C(=O)O)cc(C(=O)O)c1,H37Rv,-,-,-,MIC,-,>100 µg/mL
O=c1oc2ccc(Cl)cc2c(=O)n1-c1ccccc1,CNCTC MY331/88,-,-,-,MIC,-,31 µM
COc1ccc(C2CC(=O)c3ccccc3O2)cc1,H37Rv,-,-,-,inhibition,12.5 µg/mL,29%
CO/C(C)=C1/NC(=O)[C@H]([C@@H](C)O)NC(=O)c2csc(n2)-c2cc(O)c(-c3nc(C(=O)NCCCN4CCOCC4)cs3)nc2-c2csc(n2)[C@@H]2COC(=O)c3c4c5c(cccc5n3O)COC(=O)[C@@H](O[C@H]3C[C@](C)(O)[C@H](N(C)C)[C@H](C)O3)[C@@H](OC4)[C@H](NC(=O)c3csc1n3)c1nc(cs1)C(=O)N2,Clinical isolate 12850,broth dilution,-,-,MIC,-,≤2.5 µM
O=C1c2c(Cl)c(Cl)c(Cl)c(Cl)c2C(=O)N1c1ncc([N+](=O)[O-])s1,H37Rv,resazurin,-,-,inhibition,6.25 µg/mL,72%
O=C(/C=C/c1ccc(Cl)cc1)c1ccccc1O,H37Rv,-,-,-,EC50,-,<12.5 µg/mL
Cl.NC1=NC(c2ccccc2)C2=C(N1)C(=O)N(Cc1ccccc1)C2,H37Rv,BACTEC,-,-,MIC bound,-,>12.8 µg/mL
Nc1ccc2nc[nH]c(=O)c2c1,H37Rv,-,-,-,MIC,-,100 µg/mL
CO[C@H]1/C=C/O[C@@]2(C)Oc3c(C)c(O)c4c(O)c(c(/C=N/N5CCN(C6CCCC6)CC5)c(O)c4c3C2=O)NC(=O)/C(C)=C\C=C\[C@H](C)[C@H](O)[C@@H](C)[C@@H](O)[C@@H](C)[C@H](OC(C)=O)[C@@H]1C,Isolate 900240 drug-susceptible,-,-,-,MIC,-,0.063 µg/mL
O=[N+]([O-])c1cccc(O)c1,H37Rv,-,-,-,MIC,-,100 µg/mL
C[C@@H]1[C@@H](NCCNC[C@@H]2CC[C@H]3C[C@@H]2C3(C)C)C[C@H]2C[C@@H]1C2(C)C,-,-,-,-,MIC,-,6.25 µM
NC(=O)NC(=O)c1ccc(N)cc1,H37Rv,-,-,-,MIC,-,<100 µg/mL
CO[C@H]1/C=C/O[C@@]2(C)Oc3c(C)c(O)c4c(O)c(c(/C=N/N5CCN(C/C=C/c6ccccc6)CC5)c(O)c4c3C2=O)NC(=O)/C(C)=C\C=C\[C@H](C)[C@H](O)[C@@H](C)[C@@H](O)[C@@H](C)[C@H](OC(C)=O)[C@@H]1C,2230 (rifampin-resistant),-,-,-,MIC,-,0.2 µg/mL
CCCNc1nc2c(s1)c1c(O)c3c(O)c(C)c4c(c32)C(=O)[C@@](C)(O/C=C/[C@H](OC)[C@@H](C)[C@@H](OC(C)=O)[C@H](C)[C@H](O)[C@H](C)[C@@H](O)[C@@H](C)/C=C/C=C(/C)C(=O)N1)O4,H37Rv,-,-,VERO,MIC,-,0.05 µg/mL
Cc1cc(C)c(CNCNCc2c(C)cc(C)cc2C)c(C)c1,H37Rv,-,-,-,MIC,-,>100 µg/mL
c1ccc([Si]2(c3ccccc3)O[Si](c3ccccc3)(c3ccccc3)O[Si](c3ccccc3)(c3ccccc3)O2)cc1,H37Rv,BACTEC,-,-,MIC,-,≥128 µg/mL
CC(C)c1ccc2c(c1)CC[C@H]1[C@](C)(CNCCN[C@H](CO)Cc3ccccc3)CCC[C@]21C,-,-,-,-,MIC,-,25 µM
Cc1cccc2[nH]c(=O)c3ccccc3c12,H37Rv,-,-,-,MIC,-,>100 µg/mL
COC(=O)C1=C(C(=O)OC)C2OC1C1OC21,H37Rv,BACTEC,-,-,MIC bound,-,>12.5 µg/mL
CCN(CC)CCCC(C)Nc1cc(-c2cccc(Cl)c2)nc2ccc(C)cc12,H37Rv,-,-,-,MIC,-,>100 µg/mL
COc1ccc(CCc2cc(OC)c3ccccc3n2)cc1OC,MT8,-,-,-,MIC,-,12.5 µg/mL
O=c1c2ccccc2c2nc3ccccc3nc2n1C1CCCCC1,H37Rv,BACTEC,-,-,inhibition,12.5 µg/mL,0%
O=C(O)c1cc2ccccc2[nH]1,H37Rv,-,-,-,MIC,-,>100 µg/mL
Cc1ccc(S(=O)(=O)n2oc(=O)c(C3CCCCC3)c2N)cc1,H37Rv,resazurin,-,-,MIC bound,-,>6.25 µg/mL
NNC(=O)c1ccncc1,Clinical Isolate 913,broth dilution,-,-,MIC,-,≤0.2 µM
CCCCCCCCCCCNCCNCCc1ccccc1,-,-,-,-,MIC,-,25 µM
CO[C@H]1/C=C/O[C@@]2(C)Oc3c(C)c(O)c4c(=O)c(c5oc6cc(N7CCN(C(C)C)CC7)cc(=O)c6nc5c4c3=C2O)NC(=O)/C(C)=C\C=C\[C@H](C)[C@H](O)[C@@H](C)[C@@H](O)[C@@H](C)[C@H](OC(C)=O)[C@@H]1C,33 (rifampin-resistant),-,-,-,MBC,-,0.2 µg/mL
COc1ccc(C2Oc3cc(OC)cc(OC)c3C(=O)C2Br)cc1,-,-,-,-,EC50,-,>12.5 µg/mL
CC(C)C1=C(O)C2=C(C(=O)C1=O)[C@@]1(C)CCCC(C)(C)[C@@H]1[C@H](O)[C@H]2OC=O,H37Rv,BACTEC,-,-,inhibition,12.5 µg/mL,30%
CC(C)(C[N+](=O)[O-])C[N+](=O)[O-],H37Rv,-,-,-,MIC,-,>100 µg/mL
NCC[C@H](O)C(=O)N[C@@H]1C[C@H](N)[C@@H](O[C@H]2O[C@H](CN)[C@@H](O)[C@H](O)[C@H]2O)[C@H](O)[C@H]1O[C@H]1O[C@H](CO)[C@@H](O)[C@H](N)[C@H]1O,10S,-,-,-,MIC,-,2.5 µg/mL
Cc1c(C(=O)O)nc(N)[nH]c1=O,H37Rv,BACTEC,-,-,MIC bound,-,>12.5 µg/mL
OCc1ccccc1Sc1ccccc1CNCCNCc1cccc(F)c1,-,-,-,-,MIC,-,25 µM
CCCCCc1cc(OC)c2ccccc2n1,MT10,-,-,-,MIC,-,167 µg/mL
O=C(CC1Sc2ccccc2NC1=O)NNc1ccc(Cl)cc1Cl,H37Rv,BACTEC,-,-,inhibition,12.5 µg/mL,44%
O=C(O)c1cc(Br)ccc1O,H37Rv,-,-,-,MIC,-,50 µg/mL

Repeating the final 7 entries:

SMILES	strain	read by	mutations	cells	read-out	tested at	result
CC(C)(C[N+](=O)[O-])C[N+](=O)[O-]	H37Rv	-	-	-	MIC	-	>100 µg/mL
NCC[C@H](O)C(=O)N[C@@H]1C[C@H](N)[C@@H](O[C@H]2O[C@H](CN)[C@@H](O)[C@H](O)[C@H]2O)[C@H](O)[C@H]1O[C@H]1O[C@H](CO)[C@@H](O)[C@H](N)[C@H]1O	10S	-	-	-	MIC	-	2.5 µg/mL
Cc1c(C(=O)O)nc(N)[nH]c1=O	H37Rv	BACTEC	-	-	MIC bound	-	>12.5 µg/mL
OCc1ccccc1Sc1ccccc1CNCCNCc1cccc(F)c1	-	-	-	-	MIC	-	25 µM
CCCCCc1cc(OC)c2ccccc2n1	MT10	-	-	-	MIC	-	167 µg/mL
O=C(CC1Sc2ccccc2NC1=O)NNc1ccc(Cl)cc1Cl	H37Rv	BACTEC	-	-	inhibition	12.5 µg/mL	44%
O=C(O)c1cc(Br)ccc1O	H37Rv	-	-	-	MIC	-	50 µg/mL